Anti-infective test results gathered from many reports (values: NIAID ChemDB through PubChem).

Common to all: tests in culture; organism: Mycobacterium tuberculosis

Percent inhibition refers to the dose given; in toxicity tests it is the harm to the cells. Conditions beyond the fields shown may differ between rows. An empty or dashed field is not shown. MIC50, MIC90 and the like: level of inhibition, or share of isolates inhibited. ECn: concentration that inhibits the pathogen or its effect by n%. MIC bound comes from a single tested concentration.

structure | tested at | method | strain | setting | cell line | measure | result
C=CCCCCCCCC/C=N/NC(=O)CCSCCC(=O)N/N=C/CCCCCCCCC=C | 12.5 µg/mL | BACTEC | H37Rv |  |  | inhibition | 7%
CO/N=C(/C(=O)N[C@@H]1C(=O)N2C(C(=O)[O-])=C(C[n+]3cccc4c3CCC4)CS[C@H]12)c1csc(N)n1 | 100 µg/mL | BACTEC | 8 strains |  |  | inhibition | 100%
Cc1cc(Cl)ccc1Nc1sc(C(=O)c2cc3cc(Cl)ccc3o2)c(N)c1C#N | 12.5 µg/mL | BACTEC | H37Rv |  |  | inhibition | -57%
NC(=O)c1ccncc1 |  | resazurin | CF74 |  |  | MIC | >25 µg/mL
CO[C@H]1/C=C/O[C@@]2(C)Oc3c(C)c(O)c4c(=O)c(c5oc6cc(N7CCN(CC(C)C)CC7)cc(=O)c6nc5c4c3=C2O)NC(=O)/C(C)=C\C=C\[C@H](C)[C@H](O)[C@@H](C)[C@@H](O)[C@@H](C)[C@H](OC(C)=O)[C@@H]1C |  |  | Kurono |  |  | MIC | 0.002 µg/mL
CCOC(=O)c1ccc(NC(=O)c2ccccc2C(=O)O)cc1O |  |  | H37Rv |  |  | MIC | >2 µg/mL
O=C(Nc1ccc(C(F)(F)F)cc1)c1ccc(Cl)cc1OS(=O)(=O)c1ccccc1 |  |  | H37Rv | 21 d |  | MIC | 4 µM
O=C(Nc1ccc(Cl)c(Cl)c1)C(=O)Nn1c(=S)[nH]c2ccccc2c1=O |  | BACTEC | H37Rv |  |  | MIC bound | >12.5 µg/mL
Brc1ccc(CSc2ncn[nH]2)cc1 |  |  | My 331/88 |  |  | MIC | 250 µM
CCCOC(=O)c1ccc(NC(=O)CCC(=O)O)cc1O |  |  | H37Rv |  |  | MIC | >20 µg/mL
CCOCCOC(=O)c1nn(-c2ccc(Cl)cc2)c2c1C(=O)c1ccccc1C2=O |  | resazurin | H37Rv |  |  | MIC bound | >6.25 µg/mL
N/C(COc1cccc(Cl)c1)=N/NC(=O)c1ccncc1 |  |  | ATCC 35822 (isoniazid-resistant) |  |  | MIC | 12.5 µg/mL
O=C(NCc1cccnc1)c1cc(Cl)cc(Cl)c1O |  |  | H37Rv | 21 d |  | MIC | 500 µM
CO[C@H]1/C=C/O[C@@]2(C)Oc3c(C)c(O)c4c(O)c(c(/C=N/N5CCN(C)CC5)c(O)c4c3C2=O)NC(=O)/C(C)=C\C=C\[C@H](C)[C@H](O)[C@@H](C)[C@@H](O)[C@@H](C)[C@H](OC(C)=O)[C@@H]1C |  |  | Isolate 5 |  |  | MIC | >32 µg/mL
C[C@H]1S[C@H](c2ccc(Cl)cc2Cl)N(NC(=O)c2ccncc2)C1=O | 0.5 µM | BACTEC |  |  |  | inhibition | 0%
CCN=c1cc2n(-c3ccc(Cl)cc3)c3ccccc3nc-2cc1Nc1ccc(Cl)cc1 |  |  | MTB11 (EMB-resistant) |  |  | MIC | 0.06 µg/mL
O=C(Nc1ccc(C2=NCCN2)cc1)c1ccc(C(=O)Nc2ccc(C3=NCCN3)cc2)c(Br)c1 |  | BACTEC | H37Rv |  | VERO | MIC | 3.13 µg/mL
O=C(NCc1cccnc1)c1cc(Br)ccc1O |  |  | H37Rv | 14 d |  | MIC | 125 µM
Cc1ccc(NC(Nc2ccc(C)c(Cl)c2)C(Cl)(Cl)Cl)cc1Cl |  | BACTEC | H37Rv |  |  | MIC bound | >12.5 µg/mL
O=C(NCc1ccccc1)c1ccc(Cl)cc1O |  |  | H37Rv | 21 d |  | MIC | 62 µM
O=C(O)c1cn(-c2ccc(F)cc2)c2cc(N3CCNCC3)c(F)cc2c1=O | 100 µg/mL | BACTEC | 12 strains |  |  | inhibition | 100%
C[C@@H]1CN(c2c(F)c(N)c3c(=O)c(C(=O)O)cn(C4CC4)c3c2F)C[C@H](C)N1 |  |  | Isolate 17 |  |  | MIC | 0.13 µg/mL
O=C(O)/C=C\C(=O)Nc1ccc(C(=O)Oc2ccccc2)c(O)c1 |  |  | H37Rv |  |  | MIC | 0.25 µg/mL
CCOC(=O)C(Cc1ccccc1)NOP(=O)(CCC(=O)N1C[C@@H](n2cnc3c(=O)[nH]c(N)nc32)[C@H](OC[C@@H](O)P(=O)(ONC(Cc2ccccc2)C(=O)OCC)ONC(Cc2ccccc2)C(=O)OCC)C1)ONC(Cc1ccccc1)C(=O)OCC |  |  | H37Rv |  | Macrophage | MIC90 | 85 µM
N#Cc1ccc2c(c1)[n+]([O-])c(C#N)c(N)[n+]2[O-] | 6.25 µg/mL |  | H37Rv |  |  | inhibition | 97%
O=C(N1CCN(CCO)CC1)N1c2ccccc2Sc2ccccc21 | 6.25 µg/mL | resazurin | H37Rv |  |  | inhibition | 60%
Clc1ccc(Nc2cc3nc4ccccc4n(-c4ccc(Cl)c(Cl)c4)c-3cc2=NC2CCNCC2)cc1Cl |  |  | 2218 (SM INH THA-RES) |  |  | MIC | 0.5 µg/mL
O=C(Nc1ccc(Cl)c(Cl)c1)c1cc(Cl)ccc1OS(=O)(=O)c1ccccc1 |  |  | H37Rv | 14 d |  | MIC | 1 µM
CC(=O)OCC1=C(C(=O)O)N2C(=O)[C@@H](NC(=O)CSc3ccncc3)[C@H]2SC1 | 100 µg/mL | BACTEC | 8 strains |  |  | inhibition | 100%
CCCCOC(=O)c1ccc(NC(=O)/C=C\C(=O)O)cc1O |  |  | H37Rv |  |  | MIC | 20 µg/mL
CC(C)N=c1cc2n(-c3ccc(Cl)cc3)c3ccccc3nc-2cc1Nc1ccc(Cl)cc1 |  |  | MTB9 (RIF-resistant) |  |  | MIC | 0.5 µg/mL
CC(C)(C)c1cc(C(C)(C)C)c2oc(Cc3ccc(O)cc3)nc2c1 |  |  | My 331/88 |  |  | MIC | 125 µM
Cc1ccccc1OC/C(N)=N\NC(=O)c1ccncc1 |  |  | ATCC 35822 (isoniazid-resistant) |  |  | MIC | 100 µg/mL
O=c1[nH]c2c([N+](=O)[O-])cccc2c(O)c1N=Nc1ccc(Cl)cc1 |  | resazurin | H37Rv |  |  | MIC | <6.25 µg/mL
COc1ccc(C(=O)NCc2cccnc2)c(O)c1 |  |  | H37Rv | 14 d |  | MIC | 500 µM
CC1(C)OC(=O)C2C3C=CC(C2C(=O)O)C31 |  | BACTEC | H37Rv |  |  | MIC bound | >12.5 µg/mL
O=C(Nc1ccc(Cl)c(Cl)c1)c1ccc(Cl)cc1OS(=O)(=O)c1ccccc1 |  |  | H37Rv | 21 d |  | MIC | 8 µM
O=C1C=CC(=NN=C2c3ccccc3-c3ccccc32)C=C1 |  | BACTEC | H37Rv |  |  | MIC bound | >12.5 µg/mL
O=C(NCc1ccccn1)c1ccc(Cl)cc1O |  |  | H37Rv | 14 d |  | MIC | 125 µM
CCOC(=O)N1C=CC2Oc3c(Cl)c(Cl)c(Cl)c(Cl)c3OC2C=N1 | 6.25 µg/mL | BACTEC | H37Rv |  |  | inhibition | 7%
O=[N+]([O-])c1cn2c(n1)OC[C@@H](OCc1ccc(OCc3ccccc3)cc1)C2 |  |  | H37Rv-T3 (PA-824-resistant) |  |  | MIC | >100 µM
O=C(NCc1ccccn1)c1cc(Br)ccc1O |  |  | H37Rv | 21 d |  | MIC | 500 µM
Cc1cccc(N=Nc2c(O)c3c(ccc4ccccc43)oc2=O)c1C |  | resazurin | H37Rv |  |  | MIC | <6.25 µg/mL
O=C(O)C1=C(CSc2nnnn2CS(=O)(=O)O)CS[C@@H]2[C@H](NC(=O)C(O)c3ccccc3)C(=O)N12 | 100 µg/mL | BACTEC | 8 strains |  |  | inhibition | 0%
O=[N+]([O-])c1cccc2c(C3CCCC3)cc(C3CCCC3)nc12 | 6.25 µg/mL |  | H37Rv |  |  | inhibition | 96%
CN(C)CCCNC(=O)Nc1c(C#N)[n+]([O-])c2ccccc2[n+]1[O-] |  |  | H37Rv |  |  | MIC | >12.5 µg/mL
NC[C@H]1O[C@H](O[C@H]2[C@H](O)[C@@H](O[C@H]3O[C@H](CO)[C@@H](O)[C@H](N)[C@H]3O)[C@H](N)C[C@@H]2N)[C@H](O)[C@@H](O)[C@@H]1O |  |  | Isolate 3 |  |  | MIC | 4 µg/mL
CN(C)CCCNC1=C(Cl)C(=O)c2ccccc2C1=O |  | BACTEC | H37Rv |  |  | MIC bound | >12.5 µg/mL
O=C(Nc1cccc(C(F)(F)F)c1)c1cc(Cl)ccc1OS(=O)(=O)c1ccccc1 |  |  | H37Rv | 21 d |  | MIC | 4 µM
S=c1nc[nH][nH]1 |  |  | My 331/88 |  |  | MIC | 500 µM
O=C(Nc1cccc(Br)c1)c1cc(Cl)ccc1OS(=O)(=O)c1ccccc1 |  |  | H37Rv | 21 d |  | MIC | 8 µM
NNC(=O)c1cc2ccccc2[nH]1 | 12.5 µg/mL | BACTEC | H37Rv |  |  | inhibition | 18%
Nc1cccc2c(C3CCCCC3)cc(C3CCCCC3)nc12 | 6.25 µg/mL |  | H37Rv |  |  | inhibition | 0%
NCc1ccccc1CC(=O)N[C@@H]1C(=O)N2C(C(=O)O)=C(CSc3nnnn3CC(=O)O)CS[C@H]12 |  | BACTEC | 8 strains |  |  | EC50 | <100 µg/mL
CCc1ccnc2c(N)cc(C(C)=O)c(OC(C)C)c12 |  |  | H37Rv |  |  | MIC | >6.25 µg/mL
Cc1ccc2c(c1)[n+]([O-])c(C#N)c(NC(=O)OC(C)C)[n+]2[O-] | 6.25 µg/mL |  | H37Rv |  |  | inhibition | 100%
Cc1cc(C)cc(N=Nc2c(O)c3c(ccc4ccccc43)oc2=O)c1 | 6.25 µg/mL | resazurin | H37Rv |  |  | inhibition | 58%
O=C(Nc1cccc(Cl)c1)c1ccc(Cl)cc1OS(=O)(=O)c1ccccc1 |  |  | H37Rv | 14 d |  | MIC | 16 µM
O=C(Nc1cccc2c(C3CCCCC3)cc(C3CCCCC3)nc12)C(F)(F)F |  |  | H37Rv |  |  | MIC | 6.25 µg/mL
FC(F)(F)c1ccc(CSc2ncn[nH]2)cc1 |  |  | My 331/88 |  |  | MIC | 500 µM
CCCCCCC(=O)CCCCCC/C=C/CC1OC(=O)C(N)(CO)C1O.Cl |  | BACTEC | H37Rv |  |  | MIC bound | >12.5 µg/mL
O=c1[nH]c2c([N+](=O)[O-])cccc2c(O)c1N=Nc1cccc([N+](=O)[O-])c1 |  | resazurin | H37Rv |  |  | MIC | <6.25 µg/mL
CCCCCC1(C)Cn2cc([N+](=O)[O-])nc2O1 |  |  | H37Rv-T3-Fgd1 (PA-824-resistant) |  |  | MIC | 0.2 µM
CCN(CC)CCNC(=O)Nc1c(C#N)[n+]([O-])c2cc(F)ccc2[n+]1[O-] | 6.25 µg/mL |  | H37Rv |  |  | inhibition | 99%
Nc1cccc2ccc(C3CCCCC3)nc12 | 6.25 µg/mL |  | H37Rv |  |  | inhibition | 9%
CN(C)C1CCC(NC2=CC(=O)C(NC3CCC(N(C)C)CC3)=CC2=O)CC1 | 6.25 µg/mL | resazurin | H37Rv |  |  | inhibition | 22%
CC(C)COC(=O)c1ccc(N)cc1O |  |  | H37Rv |  |  | MIC | 2.5 µg/mL
Cc1ccc2nc(Cl)c(C#N)nc2c1 |  |  | H37Rv |  |  | MIC | >12.5 µg/mL
CCC(c1ccc(OCC(=O)N/N=C2\CCC3C4CCc5cc(O)ccc5C4CCC23C)cc1)C(CC)c1ccc(OCC(=O)N/N=C2\CCC3C4CCc5cc(O)ccc5C4CCC23C)cc1 |  | BACTEC | H37Rv |  |  | MIC bound | >12.5 µg/mL
CN[C@@H]1[C@H](O[C@H]2[C@H](O[C@H]3[C@H](O)[C@@H](O)[C@H](N=C(N)N)[C@@H](O)[C@@H]3N=C(N)N)O[C@@H](C)[C@]2(O)C=O)O[C@@H](CO)[C@H](O)[C@H]1O |  |  | 9445 (streptomycin-S isoniazid-R) |  |  | MIC | <4 µg/mL
COc1ccc(NC2=CC(C)(C(=O)O)OC2=O)cc1 |  | BACTEC | H37Rv |  |  | MIC bound | >12.5 µg/mL
COc1ccc2c(c1)[n+]([O-])c(C#N)c(NC(=O)OC(C)C)[n+]2[O-] | 6.25 µg/mL |  | H37Rv |  |  | inhibition | 99%
CO[C@H]1/C=C/O[C@@]2(C)Oc3c(C)c(O)c4c(=O)c(c5oc6cc(N7CCN(CC(C)C)CC7)cc(=O)c6nc5c4c3=C2O)NC(=O)/C(C)=C\C=C\[C@H](C)[C@H](O)[C@@H](C)[C@@H](O)[C@@H](C)[C@H](OC(C)=O)[C@@H]1C |  |  | Erdman |  |  | MBC | 0.008 µg/mL
O=C(NCc1ccccc1)c1cc(Br)cc(Br)c1O |  |  | H37Rv | 14 d |  | MIC | 32 µM
CN(C)CCCNC(=O)Nc1c(C#N)[n+]([O-])c2cc(F)ccc2[n+]1[O-] | 6.25 µg/mL |  | H37Rv |  |  | inhibition | 0%
CC(C)(C)c1cc(C(C)(C)C)c2nc(C(=O)NC(Cc3ccc(O)cc3)C(=O)O)oc2c1 |  |  | My 331/88 |  |  | MIC | 500 µM
c1cc(CSc2ncn[nH]2)cc(-c2nn[nH]n2)c1 |  |  | My 331/88 |  |  | MIC | >500 µM
N/C(COc1ccc(Cl)cc1)=N/NC(=O)c1ccncc1 |  |  | ATCC 35838 (rifampin-resistant) |  |  | MIC | 3.12 µg/mL
Cn1cc(NC(=O)Nc2cc(C(=O)Nc3cc(C(=O)Nc4ccc(S(=O)(=O)O)c5cc(S(=O)(=O)O)cc(S(=O)(=O)O)c45)n(C)c3)n(C)c2)cc1C(=O)Nc1cc(C(=O)Nc2ccc(S(=O)(=O)O)c3cc(S(=O)(=O)O)cc(S(=O)(=O)O)c23)n(C)c1 |  | BACTEC | H37Rv |  |  | MIC bound | >12.5 µg/mL
CC(C)C1Nc2cc(C(C)(C)C)cc(C(C)(C)C)c2O1 |  |  | My 331/88 |  |  | MIC | 500 µM
COc1ccc2c(c1)[n+]([O-])c(-c1ccccc1)c(N)[n+]2[O-] |  |  | ETA-R |  |  | MIC | 3.1 µg/mL
O=C(NCc1cccnc1)c1ccccc1O |  |  | H37Rv | 21 d |  | MIC | 500 µM
COc1cc(=O)oc(/C=C/C=C/C=C/C(C)=C/C2(C)OC(C)C(C)(O)C2O)c1C | 12.8 µg/mL | BACTEC | H37Rv |  |  | inhibition | 1%
COc1cccc(C(=O)NCc2cccnc2)c1O |  |  | H37Rv | 21 d |  | MIC | 500 µM